PubChem BioAssay AID624099 | ICCB-Longwood – 2012
Here is a random part of about 21,000 reagents. 497 of all reagents (2.4%) count as active. 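Higher z means weaker E2 silencing; only reporter increases were scored, and knock-downs that hurt cell survival may mask genuine repressor factors.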 Unmarked entries are inactive.

Purpose: 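Human genes that papillomavirus E2 requires to repress the HPV18 LCR promoter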 (primary screen)
Cell system: human C33A cervical carcinoma cells (HPV-negative) stably expressing BPV1 E2 and an HPV18 LCR luciferase reporter
Reagent: siRNA pool against human genes, 40 nM
Timing: 72 h
Measurement: 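Per-well luciferase luminescence, z-scored on each plate against the plate mean and SD with control wells left out, then averaged across three replicate plates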
Scale: mean z-score and z-score: higher = stronger reporter signal, weaker E2 silencing
Active means: 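Hit if mean z-score reaches 2 and two or more of three replicate z-scores also reach 2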

| mean z-score | z-score, replicate A | z-score, replicate B | z-score, replicate C | Target gene |
| --- | --- | --- | --- | --- |
| -0.6 | -0.27 | -0.87 | -0.68 | LOC389667 (retired record) |
| -1.13 | -1.33 | -0.79 | -1.26 | ADIPOR1 (adiponectin receptor 1) |
| -0.11 | -0.42 | -0.07 | 0.17 | UTS2B (urotensin 2B) |
| -0.5 | -0.77 | -0.36 | -0.37 | ST3GAL5 (ST3 beta-galactoside alpha-2,3-sialyltransferase 5) |
| 1.04 | 1.01 | 1.04 | 1.08 | RCAN3 (regulator of calcineurin 3) |
| -0.76 | -0.59 | -0.59 | -1.09 | SLC44A4 |
| 0.01 | -0.02 | -0.2 | 0.24 | CREBL2 (cAMP responsive element binding protein like 2) |
| -0.5 | -0.95 | -0.73 | 0.17 | PRMT6 (protein arginine methyltransferase 6) |
| -1.02 | -1.09 | -0.88 | -1.07 | ERLIN1 (ER lipid raft associated 1) |
| -0.56 | -0.7 | -0.19 | -0.8 | ST13P7 (ST13, Hsp70 interacting protein pseudogene 7) |
| 1.12 | 1.14 | 1.06 | 1.15 | ARL4AP1 (ARF like GTPase 4A pseudogene 1) |
| 1.21 | 1.22 | 0.93 | 1.47 | ZBTB7B (zinc finger and BTB domain containing 7B) |
| 0.23 | 0.02 | 0.21 | 0.44 | MOCS2 (molybdenum cofactor synthesis 2) |
| -0.11 | 0.07 | -0.3 | -0.09 | TGFB1I1 (transforming growth factor beta 1 induced transcript 1) |
| 0.25 | – | 0.29 | 0.21 | ALDH16A1 (aldehyde dehydrogenase 16 family member A1) |
| 0.13 | 0.67 | -0.06 | -0.22 | ADGRD1 (adhesion G protein-coupled receptor D1) |
| -0.86 | -0.83 | -1.03 | -0.72 | OR5AU1 (olfactory receptor family 5 subfamily AU member 1) |
| 0.04 | 0.01 | 0.07 | 0.05 | CA14 (carbonic anhydrase 14) |
| 0.93 | 1.21 | 0.82 | 0.75 | TWIST2 (twist family bHLH transcription factor 2) |
| -0.95 | -0.86 | -1.06 | -0.93 | ARHGAP1 (Rho GTPase activating protein 1) |
| 0.3 | 0.17 | 0.28 | 0.44 | GTF3C5 (general transcription factor IIIC subunit 5) |
| 1.98 | 1.74 | 2 | 2.2 | SERTM2 (serine rich and transmembrane domain containing 2) |
| 0.44 | 0.43 | 0.72 | 0.16 | RALB (RAS like proto-oncogene B) |
| -0.37 | -0.76 | -0.25 | -0.11 | DPP10 (dipeptidyl peptidase like 10) |
| -0.49 | -0.8 | -0.17 | -0.49 | CTF1 (cardiotrophin 1) |
| -2.08 | -1.96 | -2.06 | -2.22 | ESRP2 (epithelial splicing regulatory protein 2) |
| 0.54 | 0.79 | 0.35 | 0.47 | LOC285703 (retired record) |
| 0.25 | 0.23 | 0.37 | 0.15 | NTMT2 (N-terminal Xaa-Pro-Lys N-methyltransferase 2) |
| -0.09 | 0.26 | -0.09 | -0.45 | ACOT7 (acyl-CoA thioesterase 7) |
| 0.45 | 0.64 | 0.36 | 0.35 | GCLM (glutamate-cysteine ligase modifier subunit) |
| 2.04 | 1.91 | 1.66 | 2.54 | MST1 (macrophage stimulating 1) |
| -0.08 | -0.28 | 0.07 | -0.04 | PARP1 (poly(ADP-ribose) polymerase 1) |
| -1.89 | -1.92 | -1.99 | -1.75 | EXOC3L2 (exocyst complex component 3 like 2) |
| -0.1 | -0.35 | 0.13 | -0.09 | KCNE5 |
| 1.07 | 1 | 1.15 | 1.07 | COL7A1 (collagen type VII alpha 1 chain) |
| 0.18 | 0.01 | 0.31 | 0.22 | ZNF608 (zinc finger protein 608) |
| 0.52 | 0.56 | 0.56 | 0.46 | MAFF (MAF bZIP transcription factor F) |
| -0.17 | -0.03 | -0.22 | -0.27 | GLYATL1 (glycine-N-acyltransferase like 1) |
| 1.06 | 0.98 | 1.08 | 1.12 | KIRREL2 (kirre like nephrin family adhesion molecule 2) |
| -0.19 | -0.25 | 0.08 | -0.4 | CSNK1G2 (casein kinase 1 gamma 2) |
| 1.48 | 1.62 | 1.55 | 1.25 | ZNF37A (zinc finger protein 37A) |
| 0.91 | 0.35 | 1.12 | 1.26 | PCDHGA2 (protocadherin gamma subfamily A, 2) |
| -1.79 | -1.87 | -1.92 | -1.6 | PTPDC1 (protein tyrosine phosphatase domain containing 1) |
| 0.12 | -0.06 | 0.03 | 0.38 | IRF2BP2 (interferon regulatory factor 2 binding protein 2) |
| -0.5 | -0.62 | -0.57 | -0.32 | RPL23AP87 (ribosomal protein L23a pseudogene 87) |
| 1.38 | 1.47 | 1.43 | 1.23 | RGS19 (regulator of G protein signaling 19) |
| -0.34 | -0.26 | -0.42 | -0.34 | HMGB2 (high mobility group box 2) |
| -0.14 | -0.17 | -0.19 | -0.04 | MXD1 (MAX dimerization protein 1) |
| -1.35 | -1.55 | -1.45 | -1.06 | AP4E1 (adaptor related protein complex 4 subunit epsilon 1) |
| -0.66 | -0.86 | -0.58 | -0.53 | PLEKHB2 (pleckstrin homology domain containing B2) |
| -0.94 | -1.18 | -0.79 | -0.86 | LOC390680 (retired record) |
| 0.19 | 0.03 | 0.26 | 0.28 | COL9A1 (collagen type IX alpha 1 chain) |
| 0.57 | 0.11 | 0.64 | 0.96 | KNG1 (kininogen 1) |
| -0.84 | -0.95 | -0.68 | -0.89 | FOXP2 (forkhead box P2) |
| -1.41 | -1.39 | -1.48 | -1.36 | OTUD6A (OTU deubiquitinase 6A) |
| -0.84 | -1.38 | -0.57 | -0.58 | SLC30A7 |
| -0.95 | -0.74 | -0.96 | -1.16 | DDX27 (DEAD-box helicase 27) |

An excerpt from the list above, for reference:
| mean z-score | z-score, replicate A | z-score, replicate B | z-score, replicate C | Target gene |
| --- | --- | --- | --- | --- |
| 1.07 | 1 | 1.15 | 1.07 | COL7A1 (collagen type VII alpha 1 chain) |
| 0.18 | 0.01 | 0.31 | 0.22 | ZNF608 (zinc finger protein 608) |
| 0.52 | 0.56 | 0.56 | 0.46 | MAFF (MAF bZIP transcription factor F) |
| -0.17 | -0.03 | -0.22 | -0.27 | GLYATL1 (glycine-N-acyltransferase like 1) |
| 1.06 | 0.98 | 1.08 | 1.12 | KIRREL2 (kirre like nephrin family adhesion molecule 2) |
| -0.19 | -0.25 | 0.08 | -0.4 | CSNK1G2 (casein kinase 1 gamma 2) |
| 1.48 | 1.62 | 1.55 | 1.25 | ZNF37A (zinc finger protein 37A) |
| 0.91 | 0.35 | 1.12 | 1.26 | PCDHGA2 (protocadherin gamma subfamily A, 2) |
| -1.79 | -1.87 | -1.92 | -1.6 | PTPDC1 (protein tyrosine phosphatase domain containing 1) |
